The supplement of paper PMC9931576
Human monoclonal antibodies against the spike receptor-binding domain (heavy:light variable regions). IC50 against pseudoviruses bearing the spike of naturally observed variants; lower = stronger; >10 µg/ml means not reached at the top dose. No active / inactive call. The stated detection limit is 0.0005 µg/ml; values near or below 0.001 µg/ml lie at the floor of the assay.

B1: BD55-6573 (protein)
chain 1: QLRLQESGPGLVKPAKTLSLTCTVSGGSIGSTSSYWGWIRQPPGKGLEWIGIIHHSGTTNYNPSLKSRVSISVDMSKNQFSLDLTSVTAADTAIYYCARDILYFGEGAFDIWGQGTMVIVSS
chain 2: QAGLIQPPSVSKGVRQTATLTCTGDNNNVGNQGAAWLQQHQGHPPRLLSYRNNNRPSGISERFSASRSGNTASLTITGLQPEDEAEYYCSSWDGSLSAWEFGGGTKLTVL
B2: BD55-6594 (protein)
chain 1: QLQLQESGPGLVKPSETLSLTCTVSGGSISSSSFYWGWVRQPPGKGLEWIGNIFYTGITYSNPSLESRVTISVDTSKNQFSLKLSSVTAADTAVFYCARLERTSRSYDLWGQGTLVTVSS
chain 2: QSALTQPRSVSGSPGQSVTISCAGTSSDVGTYQYVSWYQRHPGKAPKLIIQYVTERPSGVPDRFSGSKSGNTASLTISGLQAEDEADYYCCSYAGTVVFGGGTKLTVL
B3: BD55-6596 (protein)
chain 1: DVQLVESGGGLVQPGGSLRLSCSASGFTFSNYAMHWVRQTPGKTLEYVSSITRDGGGTFYADSVKGRFTISRDNSKSTLFLQMGSLRTDDTALYYCVRETINTVMLVLDLWGQGTLATVSS
chain 2: DIPMTQSPSSLSASVGDRVTITCRAPQTINNFLNWYQLKPGKAPKLLIYGASNLQSGVPSRFSGSGSGTEYTLTISSLQPEDLATYYCQQTYITPQFTFGRGTKVEIK
B4: BD55-6588 (protein)
chain 1: QEQLAESGGGVVQPGRSLRLSCAASGFTFENYAMHWVRQAPGKGLEWVAVASYDGRKKFYADSVKGRFTISRDNYKNTLFLQVNSLRAEDTAVYYCARDDEMGYDIDGHYWRNALDVWGQGTMVTVSP
chain 2: QSALTQPASVSGSPGQSITISCTGTSSDVGGHNYVSWYQQHPGKVSKLMIYDVTKRPSGVSSRFSGSKSGNTASLTISGLQAEDEAHYYCSSYRTSSTLVFGGGTKLTVL
B5: BD55-6577 (protein)
chain 1: EVQLVESGGGLVKPGRSLRLSCTASGFIFGDYAMSWFRQAPGKGLEWVGFIRTKAYDATTEYAASVRGRFIISRDDSRSIAYLQMNSLKTEDTAVYYCSREGQLPYYYYYAMDVWGQGTTVSVSS
chain 2: DIQMTQSPSSLSASVGDRVSITCRASQSISFYLNWYQQKPGKAPKLLIYAASSLHSGVPSRFSGSGSGTDFTLTISSLQPEDFATYYCQHSYSVPLTFGGGTKVEIK
B6: BD55-6585 (protein)
chain 1: EVQLLESGGGLVQPGGSLRLSCVASGFTFSNYAMSWVRQTPGKGLEWVSAISGSGTGAYYADPVRGRFTTYYADSVQGRFTISRDNSKNTVYLQMNSLRAEDSAVYYCAKDPPNYYYYGSGSFEYWGQGTLVTVSS
chain 2: DVVMTQSPLSLPVTLGQPASISCRSSQSLVYSDGNTFLSWFHQRPGQSPRRLIYKVSNRDSGVPDRFSGSGSGTDFTLKISRVEAEDVGVFYCMQGTNWPPTFGQGTKVEIK
B7: BD55-6572 (protein)
chain 1: QVQLQESGPGLVKPSQILSLTCTVSGGSISSGGYYWSWVRQHPGKGLEWIGNIYYTGSTYYKPSLKSRITISVDTSKNQFSLILSSVTAADTAIYYCARGSYYAAGTYYNDYWGQGTLVTVSS
chain 2: SSELTQDPAVSVALGQTVRITCQGDTLRTYFASWYQQKPGQAPLLVIYGKNNRPSGIPDRFSGSSSGNTASLTITGAQAEDEADYYCNSRDSTTYHLEVFGGGTKLTVL
B8: BD55-6566 (protein)
chain 1: QVQLQESGPGLVKPSQTLSLTCTVSGGSITTGGHYWTWIRQHPGKGLEWIGYIDYSGSTYYNPSLQSRLIMSVDTSKNQFSLNLNSVTAADSAVYYCARDIRTVVGFYYMDVWGTGTTVTVSS
chain 2: DIQMTQSPSSLSASVGDRVTITCRASQNFTLYLNWYQQRPGMAPKVLIYAASTLQRGVPSRFSGSESGTDFTLTIASLQPEDFATYFCQQTYSTPWTFGQGTKVE
B9: BD55-6597 (protein)
chain 1: QVQLVQSGAEVKKPGSSVKVSCRASGGTFGSYGISWVRQAPGQGLEWMGRIVPFVTRPDYAQKYQGRVTLTADEATRTAYMELSTLRSEDTAVYYCAGDSLNSAAASGSPPVGWWGQGTLVTVSS
chain 2: DIVMTQSPDSLAVSLGERATINCKSSQSVLYNSNNQNYLAWYQQKPGQPPKLLIYWASTRGSGVPDRFSGSGSGTDFTLTISSLQAEDVAVYYCQQYYRTPLTFGPGTKVDLK
B10: BD55-6579 (protein)
chain 1: QVTLKESGPVLVKPTETLTLTCTVSGFSLTNTLIGVSWVRQPPGKALEWLAHIFSNDETSYNTSLRNRFTISKGTSKSQVVLTMTNMDPVDTATYFCARMTFIHTALGYFYYMDVWGKGTTVTVSS
chain 2: DIQMTQSPSTLSASVGDRVTITCRASQSISDWLAWYQQKAGKAPKLLIYRASILESGVPSRFSGSGSGTEFTLTISSLQPDDFATYYCQQYNGYFHTFGQGTKLEIK
B11: BD55-1273 (protein)
chain 1: QLQLQESGPGLVKPSETLSLTCTVSGGSISSKNFYWGWIRQPPGKGLEWIGSINYSGSTYYNPSLKSRDTISVDTSKNQFSLKLKSVTAADTAVYYCARHEFYFDRRSDMVLDAFDIWGQGTMVTVSS
chain 2: EIVLTQSPGTLSLSPGERATLSCRASQSVRSAYLAWYQQRPGQAPRLLISGASSRATGIPDRFSGSGSGTDFTLTISRLEPEDFALYYCQQYGSSPYTFGQGTKLEIK
B12: BD55-1268 (protein)
chain 1: EVQLLESGGGLVQPGGSLRLSCAASGFTFSTYAMSWVRQPPGEGLEWVSGIGGRGDSTYYADSVKGRFTISRDNSKNTMYLQMNSLRAEDTAVYYCATDGHITMIQPEYFQHWGLGTLVIVSS
chain 2: DIQMTQSPSSVSASVGDRVTITCRASQGIGTWLAWYQQKFGKAPKLLIYAASSLQSGVPSRFSGSGSGTDFTLTISSLQPEDFATYYCQQADSFPLTFGGGTKVEI

Molecular target: SARS-CoV-2 Omicron BA.1 spike pseudovirus
Experiment: pseudovirus neutralization IC50; higher = weaker neutralization
Protocol: (§1)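 Single-round VSV luciferase pseudovirus mixed with antibody dilutions for 1 h and put on Huh-7 cells for about a day; IC50 from the dose curve.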

| Binder | pseudovirus neutralization IC50 [µg/mL] |
| --- | --- |
| B1 | > 10 |
| B2 | > 10 |
| B3 | > 10 |
| B4 | > 10 |
| B5 | 3.84 |
| B6 | 1.49 |
| B7 | > 10 |
| B8 | > 10 |
| B9 | > 10 |
| B10 | > 10 |
| B11 | > 10 |
| B12 | 0.0217 |

Molecular target: SARS-CoV-2 Omicron BA.2 spike pseudovirus
Experiment: as above
Protocol: as §1

| Binder | pseudovirus neutralization IC50 [µg/mL] |
| --- | --- |
| B1 | > 10 |
| B2 | > 10 |
| B3 | > 10 |
| B4 | > 10 |
| B5 | 6.19 |
| B6 | 2.02 |
| B7 | > 10 |
| B8 | > 10 |
| B9 | > 10 |
| B10 | > 10 |
| B11 | > 10 |
| B12 | 0.0256 |

Molecular target: SARS-CoV-2 Omicron BA.2.75 spike pseudovirus
Experiment: as above
Protocol: as §1

| Binder | pseudovirus neutralization IC50 [µg/mL] |
| --- | --- |
| B1 | > 10 |
| B2 | > 10 |
| B3 | > 10 |
| B4 | > 10 |
| B5 | 7.7 |
| B6 | 2.46 |
| B7 | > 10 |
| B8 | > 10 |
| B9 | > 10 |
| B10 | > 10 |
| B11 | > 10 |
| B12 | 0.00815 |

Molecular target: SARS-CoV-2 Omicron BA.5 spike pseudovirus
Experiment: as above
Protocol: as §1

| Binder | pseudovirus neutralization IC50 [µg/mL] |
| --- | --- |
| B1 | > 10 |
| B2 | > 10 |
| B3 | > 10 |
| B4 | > 10 |
| B5 | 3.81 |
| B6 | 3.02 |
| B7 | > 10 |
| B8 | > 10 |
| B9 | > 10 |
| B10 | > 10 |
| B11 | > 10 |
| B12 | 1.54 |

Molecular target: SARS-CoV-2 Omicron BQ.1.1 spike pseudovirus
Experiment: as above
Protocol: as §1

| Binder | pseudovirus neutralization IC50 [µg/mL] |
| --- | --- |
| B1 | > 10 |
| B2 | > 10 |
| B3 | > 10 |
| B4 | > 10 |
| B5 | > 10 |
| B6 | > 10 |
| B7 | > 10 |
| B8 | > 10 |
| B9 | > 10 |
| B10 | > 10 |
| B11 | > 10 |
| B12 | > 10 |

Molecular target: SARS-CoV-2 Omicron XBB spike pseudovirus
Experiment: as above
Protocol: as §1

| Binder | pseudovirus neutralization IC50 [µg/mL] |
| --- | --- |
| B1 | > 10 |
| B2 | > 10 |
| B3 | > 10 |
| B4 | > 10 |
| B5 | > 10 |
| B6 | > 10 |
| B7 | > 10 |
| B8 | > 10 |
| B9 | > 10 |
| B10 | > 10 |
| B11 | > 10 |
| B12 | > 10 |

Molecular target: SARS-CoV-2 early D614G spike pseudovirus
Experiment: as above
Protocol: as §1

| Binder | pseudovirus neutralization IC50 [µg/mL] |
| --- | --- |
| B1 | > 10 |
| B2 | > 10 |
| B3 | > 10 |
| B4 | > 10 |
| B5 | 4.8 |
| B6 | 1.66 |
| B7 | > 10 |
| B8 | > 10 |
| B9 | > 10 |
| B10 | > 10 |
| B11 | 0.0461 |
| B12 | 0.00185 |
